PubChem BioAssay AID624099 | ICCB-Longwood – 2012

Aim: 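Knock-downs relieving repression by E2 of an HPV18 LCR luciferase reporter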 (primary screen)
Cell system: human C33A cervical carcinoma cells (HPV-negative) stably expressing BPV1 E2 and an HPV18 LCR luciferase reporter
Knock-down reagent: siRNA pool against human genes, 40 nM
Time to read-out: 72 h
Read-out: 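HPV18 LCR reporter light per well, converted to plate-wise z-scores that exclude control wells, and averaged over triplicate plates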
Scale: mean z-score and z-score: higher = stronger reporter signal, weaker E2 silencing
Active means: 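Mean z ≥ 2 together with z ≥ 2 in two or more of the three replicates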
This is one part, drawn at random, of about 21,000 reagents. 497 of all reagents (2.4%) count as active. 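Higher z means weaker E2 silencing; only reporter increases were scored, and knock-downs that hurt cell survival may mask genuine repressor factors.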 No sequences are given here.

For HOOK2 (GeneID 29911) [SID134324114] the deposit lists mean z-score 0.67; z-score, replicate A = 0.65; z-score, replicate B = -0.38; z-score, replicate C = 1.74; inactive.
CYP1A1 (GeneID 1543) [SID134310635] gave mean z-score -0.26; z-score, replicate A = -0.17; z-score, replicate B = -0.41; z-score, replicate C = -0.19; inactive.
Silencing of UNQ5810 (retired record) (GeneID 388218) [SID134329536] gave: mean z-score 0.3; z-score, replicate A = 0.5; z-score, replicate B = 0.03; z-score, replicate C = 0.38; inactive.
NYAP2 (GeneID 57624) [SID134325619] gave mean z-score -1.11; z-score, replicate A = -1.31; z-score, replicate B = -0.99; z-score, replicate C = -1.03; inactive.
With knock-down of MRPL57 (GeneID 78988) [SID134323060] the results were mean z-score -0.24; z-score, replicate A = -0.29; z-score, replicate B = -0.11; z-score, replicate C = -0.31; inactive.
DTNA (GeneID 1837) [SID134315608] showed mean z-score 0.69; z-score, replicate A = 0.81; z-score, replicate B = 0.78; z-score, replicate C = 0.47; inactive.
After knock-down of RNF216 (GeneID 54476) [SID134321246], the screen gave mean z-score 1.5; z-score, replicate A = 1.35; z-score, replicate B = 1.38; z-score, replicate C = 1.77; inactive.
After knock-down of TP53I13 (GeneID 90313) [SID134319556], the record shows mean z-score 0.42; z-score, replicate A = 0.47; z-score, replicate B = 0.71; z-score, replicate C = 0.08; inactive.
Silencing of SAMD7 (GeneID 344658) [SID134313973] came out at: mean z-score 0.19; z-score, replicate A = 0.13; z-score, replicate B = 0.21; z-score, replicate C = 0.24; inactive.
With knock-down of CRELD1 (GeneID 78987) [SID134320373] the results were mean z-score 0.41; z-score, replicate A = 0.41; z-score, replicate B = 0.27; z-score, replicate C = 0.54; inactive.
Knock-down of IPO7 (GeneID 10527) [SID134316538] came out at: mean z-score -0.18; z-score, replicate A = -0.29; z-score, replicate B = -0.04; z-score, replicate C = -0.2; inactive.
Silencing of SCAMP2 (GeneID 10066) [SID134310040] gave: mean z-score 0.41; z-score, replicate A = 0.19; z-score, replicate B = 0.68; z-score, replicate C = 0.35; inactive.

2 entries from above, sorted by “z-score, replicate C”, low to high:
TP53I13 (GeneID 90313) [SID134319556] — mean z-score: 0.42; z-score, replicate A: 0.47; z-score, replicate B: 0.71; z-score, replicate C: 0.08; outcome: inactive
SAMD7 (GeneID 344658) [SID134313973] — mean z-score: 0.19; z-score, replicate A: 0.13; z-score, replicate B: 0.21; z-score, replicate C: 0.24; outcome: inactive
